Compound potency records, mixed from different reports. Data source: NIAID ChemDB in PubChem.

Shared fields: tests on isolated targets; organism: HIV-1; target: Reverse transcriptase; read by: nucleotide incorporation / radiometric; read-out: IC50

a–b is a range or a potency band.

| smiles | mutations | strain | value |
|---|---|---|---|
| Nc1ncnc2c1ncn2[C@H]1CC[C@@H](COP(=O)(O)OP(=O)(O)OP(=O)(O)O)O1 | RT-F116Y |  | 5.5 µM |
| Nc1ncnc2c1ncn2[C@H]1CC[C@@H](COP(=O)(O)OP(=O)(O)OP(=O)(O)O)O1 |  |  | 0.023 µg/mL |
| C=C(Cl)CN1C(=O)c2ccccc2Oc2ncccc21 |  | LAV | <10 µg/mL |
| N#Cc1cc(Cl)cc(Oc2cc(OCc3[nH]nc4ncccc34)cc(F)c2Cl)c1 |  |  | <20 µM |
| CCN1c2ncc(CCOc3ccc(C(=O)O)c4ccccc34)cc2-c2ncc(C)n2-c2cccnc21 | RT-K103N Y181C |  | >0.1 µM |
| COc1ccc2c(C3CC3)ccc(-n3c(Br)nnc3SCC(=O)Nc3ccc(C(=O)O)cc3Cl)c2c1 |  |  | <0.05 µM |
| Nc1nc2c(ncn2[C@H]2CC[C@@H](COP(=O)(O)OP(=O)(O)OP(=O)(O)O)O2)c(=O)[nH]1 | RT-F77L |  | 0.028 µM |
| CCc1ccc(-n2c(Br)nnc2SCC(=O)Nc2ccc(C(=O)O)cc2Br)c2ccccc12 | RT-Y181C |  | <0.05 µM |
| CCN1c2ncc(CCc3cccc(N)c3)cc2C(=O)N(C)c2ccc(Cl)nc21 |  | WT | <1 µM |
| O=C(CCSc1nnnn1-c1cccc2ccccc12)Nc1ccccc1Cl |  |  | <2 µM |
| O=C(CSc1nnc(Br)n1-c1ccc(C2CC2)cc1Cl)Nc1ccc(C(=O)O)cc1Cl | RT-Y188L |  | >0.1 µM |
| CCN1c2ncc(CC(=O)c3ccncc3)cc2C(=O)N(C)c2ccc(Cl)nc21 |  | WT | <1 µM |
| CCN1c2ncc(CCOc3cccc4c3CNC(=O)N4)cc2-c2nccn2-c2cccnc21 |  |  | <0.05 µM |
| COc1ccc(NC(=O)Cc2ccc(Oc3cc(C#N)cc(C#N)c3)c(Cl)c2)c(C)c1 |  |  | 100 µM |
| CCN1c2ncc(CCOc3ccc(/C=C(\C)C(=O)O)c4ccccc34)cc2C(=O)N(C)c2ccc(Cl)nc21 | RT-Y188L |  | >1 µM |
| Nc1ncnc2c1ncn2[C@H]1CC[C@@H](COP(=O)(O)OP(=O)(O)OP(=O)(O)OP(=O)(O)OC[C@@H]2CC[C@H](n3cnc4c(N)ncnc43)O2)O1 |  | WT | 6.5 µM |
| N#Cc1cc(Cl)cc(Oc2cc(OCc3[nH]nc4nc(N5CCC5)ccc34)ccc2Cl)c1 |  |  | <20 µM |
| CCN1c2ncc(CCOc3cccc4c3ccc[n+]4[O-])cc2C(=O)Nc2c(C)cc(Cl)nc21 | RT-K103N V108I |  | 0.056 µM |
| Cc1cc(C)c(-n2nnnc2OCC(=O)Nc2ccccc2[N+](=O)[O-])c(C)c1 |  |  | <2 µM |
| CCN1c2nc(Cl)ccc2NC(=O)c2cc(CCc3cccc(NS(C)(=O)=O)c3)cnc21 |  | WT | <1 µM |
| CC(=O)c1ccc(NC(=O)CSc2nnnn2-c2c(C)cc(C)cc2C)cc1 |  |  | <2 µM |
| O=c1[nH]c(=O)n([C@H]2CC[C@@H](COP(=O)(O)OP(=O)(O)OP(=O)(O)O)O2)cc1CCc1ccccc1 |  |  | 2 µM |
| CCN1c2ncc(CC(O)c3ccncc3)cc2C(=O)N(C)c2cccnc21 |  | WT | >1 µM |
| CCN1c2ncc(CCOc3ccc(NC(=O)CCC(=O)O)c4ccccc34)cc2C(=O)N(C)c2cccnc21 | RT-Y188L |  | >1 µM |
| CCN1C(=O)c2ccc(C)cc2Oc2ncccc21 |  | LAV | >10 µg/mL |
| Cc1cc(C2CC2)cc(Cl)c1-n1c(Br)nnc1SCC(=O)Nc1ccc(C(=O)O)cc1Cl |  |  | <0.05 µM |
| CN(C)c1ccc(-n2nnnc2SCC(=O)Nc2ccccc2[N+](=O)[O-])c2ccccc12 |  |  | <2 µM |
| Nc1ncnc2c1ccn2[C@H]1C[C@H](F)[C@@H](COP(=O)(O)OP(=O)(O)OP(=O)(O)O)O1 |  | WT | 0.11 µM |
| CCN1c2ncc(CCOc3ccc(/C=C(\C)C(=O)O)c4ccccc34)cc2C(=O)N(C)c2cccnc21 |  | WT | <0.1 µM |
| CN(CC(=O)Nc1ccccc1[N+](=O)[O-])c1nnnn1-c1cccc2ccccc12 |  |  | <2 µM |
| CCN1c2ncc(CCOc3cccc4c3CCNC4=O)cc2-c2ncc(C)n2-c2cccnc21 |  |  | <0.05 µM |
| COCCN(C)c1ccc2c(COc3ccc(Cl)c(Oc4cc(Cl)cc(C#N)c4)c3)[nH]nc2n1 |  |  | <20 µM |
| CCN1c2ncc(CCOc3cccc4c3CS(=O)(=O)N4CC(=O)O)cc2-c2nccn2-c2c(C)ccnc21 | RT-K103N Y181C |  | 0.05–0.1 µM |
| Cc1cc(S(N)(=O)=O)ccc1NC(=O)COc1ccccc1C(=O)c1cc(Cl)cc(C#N)c1 | RT-K103N Y181C | NNRTI-resistant | 0.0051 µM |
| NC(=O)c1ccccc1NC(=O)CSc1nnnn1-c1cccc2ccccc12 |  |  | <2 µM |
| N#Cc1cc(C#N)cc(Oc2ccc(CC(=O)Nc3ccc(S(N)(=O)=O)cc3)cc2Cl)c1 |  |  | 10 µM |
| COC(=O)[C@H](CC(C)C)NC(=O)c1ccc(NC(=O)CSc2nnc(Br)n2-c2ccc(C3CC3)c3ccccc23)c(Cl)c1 |  |  | <0.05 µM |
| Cc1cccc(CS(=O)(=O)c2cccc[n+]2[O-])c1 |  |  | >500 µg/mL |
| CN1C(=O)c2ccccc2Oc2ncccc21 |  | LAV | >10 µg/mL |
| [N-]=[N+]=N[C@H]1C[C@H](n2cc(/C=C/c3ccccc3)c(=O)[nH]c2=O)O[C@@H]1COP(=O)(O)OP(=O)(O)OP(=O)(O)O |  |  | 0.2 µM |
| Nc1ccn([C@H]2CC[C@@H](COP(=O)(O)OP(=O)(O)OP(=O)(O)O)O2)c(=O)n1 |  | WT | 0.079 µM |
| Cc1ccc(-n2c(SCC(=O)Nc3ccc(C(=O)O)cc3Cl)nnc2C(F)F)c2c1CCCC2 | RT-Y188L |  | >0.1 µM |
| CCC(=O)N1C(=O)c2cc(C)ccc2Oc2ncccc21 |  | LAV | ~10 µg/mL |
| NS(=O)(=O)c1ccc(NC(=O)CSc2nnnn2-c2cc(Cl)ccc2Cl)c(Cl)c1 |  |  | <2 µM |
| CCN1c2ncc(CCOc3cccc4c3CS(=O)(=O)N4Cc3cc[n+]([O-])cc3)cc2-c2ncc(C)n2-c2cccnc21 | RT-K103N Y181C |  | <0.05 µM |
| CC(C)OC(=O)CNC(=O)c1ccc(NC(=O)CSc2nnc(Br)n2-c2ccc(C3CC3)c3ccccc23)c(Cl)c1 | RT-Y181C |  | <0.05 µM |
| CCN1c2ncc(C3(c4ccccc4)CO3)cc2C(=O)N(C)c2ccc(Cl)nc21 |  | WT | <1 µM |
| CCOC(=O)CCNC(=O)c1ccc(NC(=O)CSc2nnc(Br)n2-c2ccc(C3CC3)c3ccccc23)c(Cl)c1 | RT-Y188L |  | <0.05 µM |
| CCN1c2ncc(CCOc3cccc4c3CNC(=O)N4)cc2-c2nccn2-c2c(C)ccnc21 |  |  | <0.05 µM |
| CCN1c2ncc(CCOc3ccc4cc(CC(=O)O)ccc4c3C)cc2C(=O)N(C)c2cccnc21 | RT-K103N Y181C |  | 0.1–1 µM |
| C=C(C)CN1C(=O)c2ccccc2Oc2ncccc21 |  | LAV | ~10 µg/mL |
| O=C(CSc1nnnn1-c1ccccc1Br)Nc1ccccc1[N+](=O)[O-] |  |  | <2 µM |
| N#Cc1cc(C#N)cc(Oc2ccc(CC(=O)Nc3ccccc3C#N)cc2Cl)c1 |  |  | 10 µM |
| CCC(C)N1C(=O)c2ccccc2Oc2ncccc21 |  | LAV | 10 µg/mL |
| N#Cc1cc(Cl)cc(Oc2cc(Cl)cc(OCc3nc4ccccc4s3)c2)c1 |  |  | <20 µM |
| Cc1cccc(NC(=O)Cc2ccc(Oc3cc(C#N)cc(C#N)c3)c(Cl)c2)c1C |  |  | 100 µM |
| N#Cc1cc(Cl)cc(Oc2cc(OCc3[nH]nc4nc(N5CC(N)C5)ccc34)ccc2Cl)c1 |  |  | <20 µM |
| Cc1cn([C@H]2CC[C@@H](COP(=O)(O)OP(=O)(O)OP(=O)(O)OP(=O)(O)OC[C@@H]3CC[C@H](n4cc(C)c(=O)[nH]c4=O)O3)O2)c(=O)[nH]c1=O |  | WT | 8.6 µM |
| N#Cc1cc(Cl)cc(Oc2cc(F)c(Cl)c(OCc3nnc4n(O)cccc3-4)c2)c1 |  |  | <20 µM |
| N#Cc1cc(C#N)cc(Oc2ccc(CC(=O)Nc3ccc(S(N)(=O)=O)cc3)cc2F)c1 |  |  | 100 µM |

A second listing of 6 rows from above:

smiles	mutations	strain	value
N#Cc1cc(C#N)cc(Oc2ccc(CC(=O)Nc3ccc(S(N)(=O)=O)cc3)cc2F)c1			100 µM
Cc1cn([C@H]2CC[C@@H](COP(=O)(O)OP(=O)(O)OP(=O)(O)OP(=O)(O)OC[C@@H]3CC[C@H](n4cc(C)c(=O)[nH]c4=O)O3)O2)c(=O)[nH]c1=O		WT	8.6 µM
O=c1[nH]c(=O)n([C@H]2CC[C@@H](COP(=O)(O)OP(=O)(O)OP(=O)(O)O)O2)cc1CCc1ccccc1			2 µM
CCc1ccc(-n2c(Br)nnc2SCC(=O)Nc2ccc(C(=O)O)cc2Br)c2ccccc12	RT-Y181C		<0.05 µM
COCCN(C)c1ccc2c(COc3ccc(Cl)c(Oc4cc(Cl)cc(C#N)c4)c3)[nH]nc2n1			<20 µM
N#Cc1cc(C#N)cc(Oc2ccc(CC(=O)Nc3ccccc3C#N)cc2Cl)c1			10 µM

Neighbouring rows are from separate reports. ICn is the concentration giving n% inhibition. Blank or dashed fields: not listed here.